# Zika virus NS2B-NS3: effect of single substitutions on growth in cell culture

The scanned region of Zika virus MR766 is shown below (positions 1-308): NS2B is 2-131, NS3 begins at position 132.
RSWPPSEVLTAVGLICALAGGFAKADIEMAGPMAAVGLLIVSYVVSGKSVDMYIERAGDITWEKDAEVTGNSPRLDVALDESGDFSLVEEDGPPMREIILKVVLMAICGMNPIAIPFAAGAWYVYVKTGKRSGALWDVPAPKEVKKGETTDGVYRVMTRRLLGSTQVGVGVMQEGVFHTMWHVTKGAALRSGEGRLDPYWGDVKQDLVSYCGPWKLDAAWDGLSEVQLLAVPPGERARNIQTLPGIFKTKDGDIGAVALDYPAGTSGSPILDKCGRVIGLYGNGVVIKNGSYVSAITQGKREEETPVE

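Libraries of single mutants were passaged as virus pools on Huh-7.5 cells. Deep sequencing gave the change in frequency of each mutant relative to wild type, averaged over three replicate libraries (two for positions 207-308). The aim was to find sites where inhibitor-binding pockets cannot change.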

The number is log2 of the effect relative to wild type; negative values mean reduced growth, higher values better tolerance. A change reads original residue, position, new residue. All changes here are to isoleucine. Position 1 still belongs to NS2A. In the paper, -1 or higher counts as tolerated. Values above 0 are not proof of better growth: six high scorers were tested one by one, five grew less well than wild type and one about as well. Positions 1-103, 104-206 and 207-308 were made and measured as separate libraries.

For P116I the result was -5.17. With F117I the assay gave -1.17. A118I read -5.39. A119I read -2.44. For G120I the result was -2.04. A121I gave -1.33. W122I read -5.40. Y123I gave -1.96. V124I gave -2.23.

With Y125I the assay gave -2.90. For V126I the result was -1.09. For K127I the result was -6.16. For T128I the result was -4.85. For G129I the result was -5.58. With K130I the assay gave -6.05. R131I gave -5.92. For S132I the result was -6.88. For G133I the result was -5.20.

For A134I the result was -4.74. L135I read -4.60. W136I gave -6.67. With D137I the assay gave -6.23. V138I read -0.83. For P139I the result was -4.96. For A140I the result was -4.50. P141I read -4.22. With K142I the assay gave -2.64.

For E143I the result was -0.22. V144I read -0.83. For K145I the result was -0.70. With K146I the assay gave -1.61. G147I gave -3.75. E148I read -1.36. With T149I the assay gave -2.04. T150I gave -1.21. D151I gave -5.79.

G152I read -5.61. With V153I the assay gave 0.14. Y154I gave -5.13. R155I read -3.40. For V156I the result was -0.42. M157I read 4.47. T158I gave -3.95. R159I read -4.57. For R160I the result was -4.28.

With L161I the assay gave -1.04. With L162I the assay gave -1.16. With G163I the assay gave -4.61. S164I gave -1.17. T165I read -1.42. For Q166I the result was -5.00. V167I gave -0.86. For G168I the result was -4.84.

Extract of 6 entries:

* G120I: -2.04
* K142I: -2.64
* V144I: -0.83
* F117I: -1.17
* A121I: -1.33
* P116I: -5.17

From the data files of Ni et al. 2025, doi:10.1038/s41467-025-63602-z.